Laboratory results reported in ChEMBL document CHEMBL1123150, “Synthetic and conformational studies on anatoxin-a: a potent acetylcholine agonist” (1985).

Assay: Ionization constant was determined

CC(=O)C1=CCCC2CCC1N2 (stereo unspecified)
pKa: 9.4
